For at least one entry, the source does not settle the construct or the ends of the probe. At least one verdict was read from the data and is not stated in words by the source.
Target: NP WT (Influenza A virus A/NT/60/1968 (H3N2)) (UniProt Q08041)
Test: EMSA
Settings: recombinant protein; label: none (SYBR Safe stain)

AGUAGAAACAAGGCCGUAGAAUGAUGUAUAUGAGACAGA [39-nt RNA]
binding result: binds
